Compound potency records, mixed from different reports. Data source: NIAID ChemDB in PubChem.

Common to all: tests in culture; organism: Mycobacterium tuberculosis

a–b is a range or a potency band.

smiles	mutations	dose	method	measure	strain or isolate	value
Nc1o[nH]c(=O)c1-c1ccccc1		12.5 µg/mL	BACTEC	inhibition	H37Rv	0%
Cn1c(=O)cc(Oc2nc(Nc3ccc(C#N)cc3)nc(Nc3nc4ccc([N+](=O)[O-])cc4s3)n2)c2ccccc21			agar	MIC		100 µg/mL
Cc1ccn2c(C(=O)OCc3ccccc3)c(C)nc2c1	Resistant to HRESKO		broth dilution	MIC90	XDR-TB	<0.01 µg/mL
CN1C=N[C@H](C(=O)O)C[C@]1(C)COC(=O)c1ccc[nH]1				MIC	H37Rv	>128 µg/mL
O=C1NC(Cc2ccccc2)C(=O)NC1Cc1ccccc1		12.5 µg/mL	BACTEC	inhibition	H37Rv	13%
CN(C)c1ccc(/C=C/C(=O)n2c(=O)c(=O)[nH]c3ccccc32)cc1			resazurin	MIC	H37Rv	16.4 µg/mL
CCC(=O)c1ccc2c(c1)N(C(C)CN(C)C)c1ccccc1S2		12.5 µg/mL	BACTEC	inhibition	H37Rv	36%
COc1cc(/C=N/NC(=O)c2ccc(F)cc2)ccc1O				MIC	H37Rv	>6.25 µg/mL
CCCN1CCN(c2cc3c(cc2F)c(=O)c(C(=O)O)cn3C2CC2)CC1				MIC50		0.125 µg/mL
CC(=O)Cn1c(=O)oc2ccccc2c1=O				MIC bound	H37Rv	>6.25 µg/mL
CCCCC[C@H]1CCCCCCCCCC(=O)O[C@H]2[C@H](O)[C@@H](CO)OC(O[C@H]3[C@H](O1)O[C@H](C)[C@H](O)[C@@H]3O)[C@@H]2OC1O[C@@H](C)[C@H](OC(=O)C(C)C)[C@@H](OC2O[C@@H](C)[C@H](O)[C@@H](O)[C@H]2O)[C@H]1OC(=O)C(C)CC				MIC		16 µg/mL
CC1=CCC[C@H]2[C@](C)(Cc3cc(O)ccc3O)[C@@H](C)CC[C@]12C			BACTEC	MIC bound	H37Rv	>12.5 µg/mL
O=C(N/N=C/c1cccs1)c1ccccc1		6.25 µg/mL		inhibition	H37Rv	9%
COC(=O)[C@]12CC[C@@]3(COC(C)=O)CC4OOC(C=C4C)[C@H]3[C@@H]1CC[C@@H]2C(C)C			resazurin	MIC	H37Rv	100 µg/mL
CC[C@H]1OC(=O)[C@H](C)[C@@H](O[C@H]2C[C@@](C)(OC)[C@@H](OC(C)=O)[C@H](C)O2)[C@H](C)[C@@H](O[C@@H]2O[C@H](C)C[C@H](N(C)C)[C@H]2O)C(C)(O)C[C@@H](C)/C(=N\OCCCC2CCCCC2)[C@H](C)[C@@H](O)[C@]1(C)O				MIC	2	3.13 µg/mL
C=C1C[C@H]2OC2[C@]2(CC[C@@H]3C([C@@H](OC(C)=O)[C@H](C=C(C)C)OC(C)=O)=CC[C@H](OC(C)=O)[C@@H]13)CO2				MIC	H37Rv	>128 µg/mL
CC(C)[C@H]1CC[C@@H]2[C@]1(C)CCC13CC[C@](C)(O1)[C@H](CO)[C@]23O			resazurin	MIC	CIBIN 99	50 µg/mL
c1ccc2c(c1)[nH]c1nc3ncncc3nc12			resazurin	MIC bound	H37Rv	>6.25 µg/mL
CC(=O)NC[C@H]1CN(c2ccc(N3CCN(Cc4ccc([N+](=O)[O-])s4)CC3)c(F)c2)C(=O)O1				Geometric mean MIC	59 isolates	0.052 µg/mL
NC(=O)c1cnccn1			agar	EC50	592 strains	<25 µg/mL
[C-]#[N+][C@@]1(C)CC[C@H]2[C@H]3C(=C(C)CC[C@@H]31)[C@H](C=C(C)C)C[C@@H]2C				MIC	H37Rv	4 µg/mL
NC(=S)/C(N)=N/Nc1ccc(Cl)cc1			BACTEC	MIC bound	H37Rv	>12.5 µg/mL
CCCCCCCCCCCCc1cc2cccc(O)c2c(O)c1C(=O)O				MIC		>128 µg/mL
CC(C)(C)c1cc(C(O)(C(F)(F)F)C(F)(F)F)c2c(c1)C(C(F)(F)F)(C(F)(F)F)OS2(=O)=O			BACTEC	MIC bound	H37Rv	>12.5 µg/mL
Oc1ccc(/C=C/c2cc(O)cc(O)c2)cc1				MIC		128 µg/mL
CC(=O)OC[C@@]12CC[C@]3(C(=O)O)[C@@H](C(C)C)CC[C@H]3[C@@H]1C1C=C(C)C(C2)OO1			resazurin	MIC	CIBIN 99	50 µg/mL
C[C@@H](O)[C@H]1C(=O)N2C(C(=O)O)=C(S[C@@H]3CN[C@H](CNS(N)(=O)=O)C3)[C@H](C)[C@H]12			broth dilution / visual reading	MIC90		2.5–5 µg/mL
Cn1c[n+](C)cc1C(=O)[O-]				MIC	H37Rv	>128 µg/mL
CCNc1c(C)c2c3c4c1C(=O)C(=C(/C=N/N1CCN(C)CC1)C4O)NC(=O)/C(C)=C\C=C\[C@H](C)[C@H](O)[C@@H](C)[C@@H](O)[C@@H](C)[C@H](OC(C)=O)[C@H](C)[C@@H](OC)/C=C/O[C@@](C)(O2)C3=O			resazurin	MIC90		>4.7 µM
C1CCNC1.S=C(S)N1CCCC1				MIC	CS-R	0.8 µg/mL
C[C@@H]1Oc2nc([N+](=O)[O-])cn2C[C@@H]1OCc1ccc(OC(F)(F)F)cc1			absorbance	MIC	H37Rv-5A1	>100 µM
C/C=C(/C)C(=O)OC1CC(C)(C)CC2C3=CCC4C5(C)CC[C@H](O)C(C)(C)C5CC[C@@]4(C)[C@]3(C)CC[C@@]12C(=O)O				MIC	H37Rv	50 µg/mL
[C-]#[N+][C@@]1(C)CC[C@H]2[C@H]3[C@H]4C(=CC(C)(C)C[C@@H]4C[C@@H]2C)CC[C@@H]31				MIC	H37Rv	8 µg/mL
N[C@@H]1CONC1=O			agar	EC50	35 strains	<30 µg/mL
CN(C)c1ccc(C2C3=C(CCCC3=O)OC3=C2C(=O)CCC3)cc1			resazurin	MIC	H37Ra	≥3.125 µg/mL
CC1CC[C@H]2[C@@H]3CC[C@H](C(C)C)[C@@]3(C(=O)O)CC[C@@]2(C)CC1			resazurin	MIC	CIBIN 99	50 µg/mL
NC(=N\N=C\c1cc(Cl)ccc1O)/C(N)=N/N=C/c1cc(Cl)ccc1O			BACTEC	MIC bound	H37Rv	>12.5 µg/mL
Cn1c(=O)cc(Oc2nc(Nc3ccc(C#N)cc3)nc(Nc3nc4ccc(F)cc4s3)n2)c2ccccc21			agar	EC99		25 µg/mL
CNc1ccc(NCCO)c2c1C(=O)c1ccccc1C2=O			BACTEC	MIC bound	H37Rv	>12.5 µg/mL
Cn1c(=O)cc(Oc2nc(Nc3ccc(C#N)cc3)nc(Nc3ccccn3)n2)c2ccccc21		500 µg/mL	agar	inhibition		94%
CC1(C)[C@@H](Br)CC[C@]2(C)O[C@H]3COC(=O)C3=CC[C@@H]12				MIC	H37Rv	128 µg/mL
CCOC(=O)C1NC(=O)CNC1=O		12.5 µg/mL	BACTEC	inhibition	H37Rv	10%
C=C(CC[C@@H](C)[C@H]1CC[C@H]2[C@@H]3[C@@H](C=O)[C@]4(O)C[C@@H](O)CC[C@]4(C)[C@H]3CC[C@]12C)C(C)C				MIC	H37Rv	11.2 µg/mL
CC(C)(CN)NC(C)(C)CO			BACTEC	MIC	H37Rv	≥12.8 µg/mL
CO[C@H]1/C=C/O[C@@]2(C)Oc3c(C)c(OS(=O)(=O)c4ccc(C)cc4)c4c(c3C2=O)C(=O)C(/C=N/N2CCN(C)CC2)=C(NC(=O)/C(C)=C\C=C\[C@H](C)[C@H](O)[C@@H](C)[C@@H](O)[C@@H](C)[C@H](OC(C)=O)[C@@H]1C)C4=O			low oxygen	MIC90		4.8 µM
O=C1OC(C(O)CO)C(O)=C1Nc1ccc(S(=O)(=O)c2ncc(NC3=C(O)C(C(O)CO)OC3=O)s2)cc1			BACTEC	MIC bound	H37Rv	>12.5 µg/mL
CN[C@@H]1[C@H](O[C@H]2[C@H](O[C@H]3[C@H](O)[C@@H](O)[C@H](N=C(N)N)[C@@H](O)[C@@H]3N=C(N)N)O[C@@H](C)[C@]2(O)C=O)O[C@@H](CO)[C@H](O)[C@H]1O				MIC	2230	>10 µg/mL
O=C1CCCC2=C1C(c1cccc(O)c1)C1=C(CCCC1=O)O2			resazurin	MIC	H37Ra	≥0.4 µg/mL
Cn1c(=O)cc(Oc2nc(Nc3ccc(C#N)cc3)nc(Oc3cc(=O)oc4ccccc34)n2)c2ccccc21			agar	MIC		100 µg/mL
CC(O)[C@H]1C(=O)N2C(C([O-])O)=C(SC3Cn4cnc[n+]4C3)[C@H](C)[C@H]12			broth dilution / visual reading	MIC90		2.5–5 µg/mL
CCn1cc(C(=O)O)c(=O)c2cc(F)c(N3CCNCC3)cc21				MIC90	134 strains	8 µg/mL
CN1C(=O)/C(=C2\SC(=O)N(CN3CCCCC3)C2=O)c2cc(Br)ccc21		12.5 µg/mL	BACTEC	inhibition	H37Rv	0%
C[C@H](Cc1ccc(O)c(O)c1)[C@@H](C)Cc1ccc(O)c(O)c1				MIC		50 µg/mL
CN1CCN(c2cc3c(cc2F)c(=O)c(C(=O)O)cn3C2CC2)CC1				MIC50		0.125 µg/mL
CN(Cc1cc(Br)cc(Br)c1N)C1CCCCC1				MIC	5 isolates	128–256 µg/mL
Cn1c(=O)cc(Oc2nc(Nc3ccc(C#N)cc3)nc(Oc3cc(=O)n(C)c4ccccc34)n2)c2ccccc21			agar	MIC		50 µg/mL
C[C@@H](O)[C@H]1C(=O)N2C(C(=O)O)=C([C@H]3CCCO3)S[C@H]12			broth dilution / visual reading	MIC90		2.5–5 µg/mL
O=C(N/N=C/c1cccs1)c1ccc(Br)cc1				EC50	H37Rv	>6.25 µg/mL
O=C1CCCC2=C1C(c1ccc(Cl)cc1)C1=C(CCCC1=O)O2			resazurin	MIC	H37Ra	≥0.4 µg/mL
COC(=O)C1CCCN1C(=O)C(Cc1cn(S(=O)(=O)c2ccc(C)cc2)cn1)NC(=O)OC(C)(C)C		6.25 µg/mL	resazurin	inhibition	H37Rv	19%
O=C(N/N=C/c1ccc([N+](=O)[O-])s1)c1ccc(F)cc1				MIC	H37Rv	<6.25 µg/mL
O=C(O[C@@H]1Cc2c(O)cc(O)cc2O[C@@H]1c1ccc(O)c(O)c1)c1cc(O)c(O)c(O)c1				MIC		>128 µg/mL
COc1ccc(C2C3=C(CCCC3=O)OC3=C2C(=O)CCC3)cc1OC			resazurin	MIC	H37Ra	≥0.4 µg/mL
O=C1c2ccccc2C(=O)N1Cn1c(=O)c(=O)[nH]c2ccccc21			resazurin	MIC	H37Rv	10.6 µg/mL
CO[C@H]1/C=C/O[C@@]2(C)Oc3c(c4c(O)c(/C=N/N5CCN(C)CC5)c(c5nn(C)c(c3C)c45)=NC(=O)/C(C)=C\C=C\[C@H](C)[C@H](O)[C@@H](C)[C@@H](O)[C@@H](C)[C@H](OC(C)=O)[C@@H]1C)C2=O			low oxygen	MIC90		>19.3 µM
Cn1c(=O)cc(Oc2nc(Nc3ccc(C#N)cc3)nc(Nc3nc4ccc(Cl)cc4s3)n2)c2ccccc21			agar	MIC		100 µg/mL
CC1COc2c(N3CCN(C)CC3)c(F)cc3c(=O)c(C(=O)O)cn1c23			resazurin	MIC	CDC1551	0.3 µg/mL
CCC[C@@H](OC(C)=O)C1=C(Br)[C@@](CI)(OC)OC1=O				MIC	H37Rv	>128 µg/mL
CCCC1SCC(=O)N1c1nncs1		12.5 µg/mL	BACTEC	inhibition	H37Rv	-27%
O=c1[nH]c2ccccc2n(CN(c2ccccc2)c2ccccc2)c1=O			resazurin	MIC	H37Rv	9.92 µg/mL
Nc1ccc(C(=O)O)c(O)c1		10 µg/mL	agar	inhibition	35 strains	100%
O=C1CCCC2=C1C(c1ccccc1)C1=C(CCCC1=O)O2			resazurin	MIC	H37Ra	≥1.6 µg/mL
O=c1ccc2ncccc2n1CCN1CCC(NCc2cc(Cl)c(Cl)cn2)CC1			resazurin	MIC	ATCC 27294	0.04 µM
O=C1NC(=O)C2C3OC(C(Br)C3Br)C12		12.5 µg/mL	BACTEC	inhibition	H37Rv	17%
CO[C@H]1/C=C/O[C@@]2(C)Oc3c(C)c(O)c4c(O)c(c(/C=N/N5CCN(C)CC5)c(O)c4c3C2=O)NC(=O)/C(C)=C\C=C\[C@H](C)[C@H](O)[C@@H](C)[C@@H](O)[C@@H](C)[C@H](OC(C)=O)[C@@H]1C				MIC	K1	1 µg/mL
CC1(C)O[C@@H]1COc1c2occc2cc2ccc(=O)oc12			BACTEC	MIC bound	H37Rv	>12.5 µg/mL
CO[C@H]1/C=C/O[C@@]2(C)Oc3c(C)c(NCCO)c4c(c3C2=O)C(O)C(/C=N/N2CCN(C)CC2)=C(NC(=O)/C(C)=C\C=C\[C@H](C)[C@H](O)[C@@H](C)[C@@H](O)[C@@H](C)[C@H](OC(C)=O)[C@@H]1C)C4=O			resazurin	MIC90		>4.6 µM
Nc1nn2c(C(Br)Br)cc(C(Br)Br)nc2c1[N+](=O)[O-]		6.25 µg/mL	resazurin	inhibition	H37Rv	14%
CNn1cc(C(=O)O)c(=O)c2cc(F)c(N3CCN(C)CC3)cc21				MIC90	19 strains	12.5 µg/mL

A second listing of 11 rows from above:

smiles | mutations | dose | method | measure | strain or isolate | value
Cn1c(=O)cc(Oc2nc(Nc3ccc(C#N)cc3)nc(Oc3cc(=O)oc4ccccc34)n2)c2ccccc21 |  |  | agar | MIC |  | 100 µg/mL
COC(=O)[C@]12CC[C@@]3(COC(C)=O)CC4OOC(C=C4C)[C@H]3[C@@H]1CC[C@@H]2C(C)C |  |  | resazurin | MIC | H37Rv | 100 µg/mL
CC(=O)OC[C@@]12CC[C@]3(C(=O)O)[C@@H](C(C)C)CC[C@H]3[C@@H]1C1C=C(C)C(C2)OO1 |  |  | resazurin | MIC | CIBIN 99 | 50 µg/mL
Cn1c(=O)cc(Oc2nc(Nc3ccc(C#N)cc3)nc(Nc3nc4ccc([N+](=O)[O-])cc4s3)n2)c2ccccc21 |  |  | agar | MIC |  | 100 µg/mL
O=C1NC(Cc2ccccc2)C(=O)NC1Cc1ccccc1 |  | 12.5 µg/mL | BACTEC | inhibition | H37Rv | 13%
O=C1CCCC2=C1C(c1cccc(O)c1)C1=C(CCCC1=O)O2 |  |  | resazurin | MIC | H37Ra | ≥0.4 µg/mL
C1CCNC1.S=C(S)N1CCCC1 |  |  |  | MIC | CS-R | 0.8 µg/mL
CN(C)c1ccc(C2C3=C(CCCC3=O)OC3=C2C(=O)CCC3)cc1 |  |  | resazurin | MIC | H37Ra | ≥3.125 µg/mL
O=C1CCCC2=C1C(c1ccc(Cl)cc1)C1=C(CCCC1=O)O2 |  |  | resazurin | MIC | H37Ra | ≥0.4 µg/mL
O=C1OC(C(O)CO)C(O)=C1Nc1ccc(S(=O)(=O)c2ncc(NC3=C(O)C(C(O)CO)OC3=O)s2)cc1 |  |  | BACTEC | MIC bound | H37Rv | >12.5 µg/mL
NC(=S)/C(N)=N/Nc1ccc(Cl)cc1 |  |  | BACTEC | MIC bound | H37Rv | >12.5 µg/mL

Blank or dashed fields: not listed here. Inhibition is in % at the dose shown (toxicity tests: loss of growth or viability). MIC50, MIC90 and the like: level of inhibition, or share of isolates inhibited. Rows are shuffled and stem from different studies. ECn: concentration that inhibits the pathogen or its effect by n%. MIC bound: limit read from a one-dose screen.